This assay concerns the target SARS-CoV-2 3CL^pro (Severe acute respiratory syndrome coronavirus 2, UniProt P0DTD1). It counts as biochemical. Particulars: pH 7.4.

Where two headings read alike, the source gives them in different places.

Regarding Myricitrin, the IC50 (usually the concentration that inhibits the measured activity by half) stood at 118 µM (read-out: IC50 0.5 (min)) and 14.2 µM (read-out: IC50 60 (min)).
